PubChem BioAssay AID624099, ICCB-Longwood | 2012
In all, the deposit lists about 21,000 reagents; this is an unselected part. 497 of all reagents (2.4%) count as active. 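Higher z means weaker E2 silencing; only reporter increases were scored, and knock-downs that hurt cell survival may mask genuine repressor factors.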 No sequences are given here.

Purpose: 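Human genes that papillomavirus E2 requires to repress the HPV18 LCR promoter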 (primary screen)
Cell system: human C33A cervical carcinoma cells (HPV-negative) stably expressing BPV1 E2 and an HPV18 LCR luciferase reporter
Reagents: siRNA pool against human genes, 40 nM
Duration: 72 h
Detection: 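Per-well luciferase luminescence, z-scored on each plate against the plate mean and SD with control wells left out, then averaged across three replicate plates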
Direction: mean z-score and z-score: higher = stronger reporter signal, weaker E2 silencing
Hit rule: 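Mean z ≥ 2 together with z ≥ 2 in two or more of the three replicates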

| gene | mean z-score | z-score, replicate A | z-score, replicate B | z-score, replicate C | Outcome |
| --- | --- | --- | --- | --- | --- |
| LOC387630 (retired record) | 0.14 | 0.03 | 0.09 | 0.31 | inactive |
| AOC3 | -0.16 | -0.17 | -0.12 | -0.19 | inactive |
| CC2D1B | -0.78 | -0.49 | -1.04 | -0.8 | inactive |
| OLIG2 | 0.53 | 0.41 | 0.81 | 0.36 | inactive |
| RPL32P17 | 1.11 | 1.04 | 1.08 | 1.22 | inactive |
| LOC401025 (retired record) | 1.04 | 0.94 | 0.87 | 1.32 | inactive |
| NKD1 | -0.93 | -0.98 | -0.93 | -0.88 | inactive |
| KRT77 | 0.07 | 0.35 | 0.19 | -0.32 | inactive |
| CCT8L2 | -0.7 | -0.11 | -0.75 | -1.24 | inactive |
| SERPINE1 | 2.05 | 2.69 | 1.73 | 1.73 | inactive |
| ACTR3 | -0.18 | -0.38 | -0.07 | -0.1 | inactive |
| BTN2A1 | 0.32 | 0.67 | -0.06 | 0.35 | inactive |
| GPR180 | -0.77 | -0.61 | -0.87 | -0.84 | inactive |
| ORAI3 | 0.06 | -0.03 | -0.1 | 0.3 | inactive |
| FRG2 | 0.6 | 0.79 | 0.27 | 0.73 | inactive |
| MYCT1 | 2.26 | 1.93 | 2.62 | 2.24 | active |
| EBP | -0.72 | -0.78 | -0.65 | -0.73 | inactive |
| DCAF4L1 | 0.33 | 0.15 | 0.11 | 0.74 | inactive |
| LOC400212 | -1.52 | -1.86 | -0.96 | -1.74 | inactive |
| RNF7 | -0.08 | 0.04 | -0.28 | 0.01 | inactive |
| SHC4 | 0.91 | 0.63 | 0.62 | 1.48 | inactive |
| CAPN1 | 2.18 | 1.69 | 2.52 | 2.32 | active |
| LOC401499 (retired record) | -0.05 | -0.23 | 0.13 | -0.05 | inactive |
| AZI2 | -1.22 | -1.24 | -1.18 | -1.22 | inactive |
| PDCL3P4 | 2.95 | 3.1 | 2.56 | 3.18 | active |
| PAX4 | 1.01 | 1.12 | 0.96 | 0.94 | inactive |

Next part (3 carried over from the part before).
| gene | mean z-score | z-score, replicate A | z-score, replicate B | z-score, replicate C | Outcome |
| --- | --- | --- | --- | --- | --- |
| AZI2 | -1.22 | -1.24 | -1.18 | -1.22 | inactive |
| PDCL3P4 | 2.95 | 3.1 | 2.56 | 3.18 | active |
| PAX4 | 1.01 | 1.12 | 0.96 | 0.94 | inactive |
| ARHGEF10 | 1.34 | 1.27 | 1.22 | 1.53 | inactive |
| MSH4 | -0.13 | -0.05 | -0.27 | -0.07 | inactive |
| HYLS1 | -0.81 | -0.77 | -1.01 | -0.64 | inactive |
| PWWP3A | 0.29 | 0.59 | 0.06 | 0.21 | inactive |
| PROS1 | -0.58 | -0.66 | -0.38 | -0.7 | inactive |
| PTCH1 | -0.47 | -0.57 | -0.52 | -0.31 | inactive |
| DYNLT2 | 2.02 | 2.03 | 1.84 | 2.18 | active |
| LINC00161 | -1.14 | -0.97 | -1.39 | -1.08 | inactive |
| TNIP2 | -0.11 | -0.11 | -0.4 | 0.17 | inactive |
| MAPKBP1 | 1.59 | 1.34 | 1.39 | 2.04 | inactive |
| MZF1 | 1.19 | 0.71 | 1.28 | 1.58 | inactive |
| HAPLN2 | -0.28 | -0.58 | -0.44 | 0.2 | inactive |
| NKX2-5 | 0.42 | 0.33 | 0.5 | 0.42 | inactive |
